The list shows a part of the results, in another mix than the full data. The source made the active and inactive calls. Cut-off read from the data, not from the text of the source: active = inhibition mostly above about 34% (no sharp cut-off); inconclusive = no clear call, values can overlap the other calls; inactive = mostly below about 22%.
These compounds were tested against dTDP-4-dehydrorhamnose reductase (Mycobacterium tuberculosis (strain ATCC 25618 / H37Rv)) + dTDP-4-dehydrorhamnose 3,5-epimerase (Mycobacterium tuberculosis (strain ATCC 25618 / H37Rv)) (UniProt P9WH09+P9WH11) (assay: M. tuberculosis RmlC/RmlD coupled enzyme inhibitors, primary screen, biochemical, compound mixtures, 384-well, from 1536-well plates (AID 1533)). Conditions: RmlC+RmlD coupled enzyme assay, percent inhibition; primary screen in compound mixtures; at 3.6 µM; stronger effect = higher value.

Protein sequences, listed by entry. Tags and fused reporters are not part of them.
UniProt P9WH09, whole entry, looked up: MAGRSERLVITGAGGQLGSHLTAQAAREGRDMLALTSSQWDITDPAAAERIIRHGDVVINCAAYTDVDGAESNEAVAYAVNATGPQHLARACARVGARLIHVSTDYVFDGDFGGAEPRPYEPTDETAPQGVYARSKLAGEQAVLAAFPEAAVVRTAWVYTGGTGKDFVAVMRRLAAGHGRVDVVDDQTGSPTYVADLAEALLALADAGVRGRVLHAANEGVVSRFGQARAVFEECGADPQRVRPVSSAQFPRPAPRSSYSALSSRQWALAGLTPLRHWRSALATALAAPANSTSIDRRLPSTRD
UniProt P9WH11, whole entry, looked up: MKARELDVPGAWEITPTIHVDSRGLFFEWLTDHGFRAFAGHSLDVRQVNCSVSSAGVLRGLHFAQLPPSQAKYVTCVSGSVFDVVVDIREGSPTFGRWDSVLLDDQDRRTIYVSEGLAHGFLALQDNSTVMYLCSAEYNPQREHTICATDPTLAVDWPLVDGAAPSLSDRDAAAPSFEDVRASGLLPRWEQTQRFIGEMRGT

| Structure (SMILES) | inhibition |
| --- | --- |
| CC(C)c1ccc(NC2CCN(C(=O)OC(C)(C)C)CC2)cc1 | inactive: 15.8% |
| COc1ccc(CN(CCCl)CCCl)cc1Cl | inactive: 12.5% |
| CN(C)c1cccc(C(=O)NCC2(N3CCCCC3)CCCCC2)c1 | inactive: 3.48% |
| O=C(NCC1(N2CCOCC2)CCCCC1)c1cc(=O)[nH]c2ccccc12 | inactive: -3.66% |
| COc1ccc(NC2CCN(C(=O)OC(C)(C)C)CC2)cc1 | inactive: -2.26% |
| CN1CCN(CCOC(=O)C(O)(c2ccccc2)c2ccccc2)CC1 | inactive: -8.5% |
| N#CC1(Nc2ccccc2)CCN(CCc2ccccc2)CC1 | inactive: -2.4% |
| O=C(NCC1(N2CCCCC2)CCCCC1)c1cccc([N+](=O)[O-])c1 | inactive: 2.01% |
| Cc1ccc(OCC(C)C)c(CN(CCCl)CCCl)c1 | inactive: 7.22% |
| COc1ccc(NC2CCN(CCc3ccccc3)CC2)c(OC)c1 | inactive: -4.41% |
| CCOc1ccc(C)cc1CN(CCCl)CCCl | inactive: 7.34% |
| O=C(OC1CN2CCC1CC2)C1c2ccccc2Oc2ccccc21 (stereo unspecified) | inactive: 4.03% |
| N#CC1(Nc2ccccc2)CCN(Cc2ccccc2)CC1 | inactive: -7.31% |
| CCOC(=O)N1CCC(Nc2ccc(OC)cc2)CC1 | inactive: 3.76% |
| O=C(NCC1(N2CCOCC2)CCCCC1)c1cc2ccccc2o1 | inactive: -6.42% |
| COc1ccc(C(=O)NCC2(N3CCCCC3)CCCCC2)c(OC)c1OC | inactive: 3.63% |
| CCCOc1ccc(C)cc1CN(CCCl)CCCl | inactive: 10.8% |
| COc1cc(OC)cc(C(=O)NCC2(N3CCOCC3)CCCCC2)c1 | inactive: -9.14% |
| CCC(CO)(C(=O)OC1CN2CCC1CC2)c1ccccc1 (stereo unspecified) | inactive: 16.6% |
| CC(C)(C)OC(=O)N1CCC(Nc2ccccc2)CC1 | inactive: 4.7% |
| CCOc1ncccc1C(=O)NCC1(N2CCOCC2)CCCCC1 | inactive: 11.9% |
| CN(C)c1ccc(C(=O)NCC2(N3CCCCC3)CCCCC2)cc1 | inactive: 16.1% |
| N#Cc1ccc(C(=O)NCC2(N3CCCCC3)CCCCC2)cc1 | inactive: 10.6% |
| O=C(OC1CN2CCC1CC2)C1c2ccccc2C=Cc2ccccc21 (stereo unspecified) | inactive: -10.5% |
| N/C(=N\O)c1c(N)no[n+]1[O-] | inactive: 3.81% |
| COc1ccc(C(=O)NCC2(N3CCOCC3)CCCCC2)cc1OC | inactive: -14.7% |
